Compound potency records, mixed from different reports. Data source: NIAID ChemDB in PubChem.

All rows: tests on isolated targets; agent: Hepatitis C virus; protein: NS3 protease

Lines come from different laboratories, so protocols vary. a–b is a range or a potency band. ICn: concentration for n% inhibition.

compound | endpoint | result
CC[C@H](NC(=O)[C@@H]1C[C@@H](OCc2ccccc2)CN1C(=O)[C@@H](NC(=O)[C@@H](NC(=O)c1cnccn1)C(C)C)C(C)C)B1OC2CC3CC(C3(C)C)C2(C)O1 | Ki | 1–100 µM
CCC[C@H](NC(=O)C1CC(Oc2cc(-c3ccccc3)nc3cc(OC)ccc23)CN1C(=O)[C@@H](NC(=O)OC(C)(C)C)C(C)C)C(=O)NS(=O)(=O)c1ccccc1 | Ki | 0.3 µM
CCCC[C@H](NC(=O)[C@H](CCC(=O)O)NC(=O)[C@@H](N)CC(=O)O)C(=O)N[C@@H](CCC(=O)O)C(=O)N[C@@H](CC1CCCCC1)C(=O)N[C@@H](CS)C(=O)O | IC50 | 0.22 µM
CCC[C@H](NC(=O)C1CC(Oc2cc(-c3ccccc3)nc3cc(OC)ccc23)CN1C(=O)[C@@H](NC(=O)OC(C)(C)C)C(C)C)C(=O)NS(=O)(=O)CCc1ccccc1 | Ki | 0.42 µM
CC[C@H](NC(=O)[C@H](CC1CCCCC1)NC(=O)[C@H](CCC(=O)O)NC(=O)[C@H](CC(C)C)NC(=O)[C@H](CCC(=O)O)NC(=O)[C@@H](N)CC(=O)O)C(=O)O | IC50 | 1.6 µM
CCC[C@H](NC(=O)[C@H](Cc1ccc2ccccc2c1)NC(=O)[C@H](CCC(=O)O)NC(=O)[C@@H](NC(=O)CCC(=O)O)C1CCCCC1)C(=O)NS(=O)(=O)C(C)C | Ki | 12 µM
CC[C@H](NC(=O)[C@@H]1C[C@@H](OCc2ccccc2)CN1C(=O)[C@@H](NC(=O)[C@@H](NC(=O)c1cnccn1)C(C)C)C(C)C)P(=O)(Oc1ccccc1)Oc1ccccc1 | Ki | 1–100 µM
CCC[C@H](NC(=O)C1CC(Oc2cc(-c3ccccc3)nc3cc(OC)ccc23)CN1C(=O)[C@@H](NC(=O)OC(C)(C)C)C(C)C)C(=O)NS(C)(=O)=O | Ki | 0.77 µM
CC[C@@H](C=O)NC(=O)[C@H](CC(C)C)NC(=O)[C@@H](NC(=O)[C@@H](NC(=O)CCN1CCCCC1)C(C)C)C(C)C | Ki | 1–100 µM
CSCC[C@H](NC(=O)[C@H](CCC(=O)O)NS(=O)(=O)C(C)=O)C(=O)N[C@@H](CCC(=O)O)C(=O)N[C@@H](CCC(=O)O)C(=O)N[C@@H](CS)C(=O)O | IC50 | 0.6 µM
CC[C@H](C)[C@H](NC(=O)[C@H](CC(=O)O)NC(=O)[C@@H](N)CC(=O)O)C(=O)N[C@H](C(=O)N1CCC[C@H]1C(=O)N[C@@H](CS)C(=O)O)C(C)C | Ki | 79 µM
CSCC[C@H](NC(=O)[C@H](CCC(=O)O)NC(=O)[C@@H](N)CC(=O)O)C(=O)N[C@@H](CCC(=O)O)C(=O)N[C@@H](CCC(=O)O)C(=O)NCCS | IC50 | >64 µM
CC[C@H](NC(=O)[C@H](CC(C)C)NC(=O)[C@@H](NC(=O)[C@@H](NC(=O)[C@H](CC(=O)O)CC(=O)[C@H](CCC(=O)O)NC(C)=O)C(C)C)C(C)C)C(=O)C(=O)NCc1ccccc1OC | Ki | <1 µM
N[C@@H](CC(=O)O)C(=O)N[C@@H](CCC(=O)O)C(=O)N[C@@H](Cc1cccs1)C(=O)N[C@@H](CCC(=O)O)C(=O)N[C@@H](CC1CCCCC1)C(=O)N[C@@H](CS)C(=O)O | IC50 | 0.87 µM
CCC[C@H](NC(=O)C1CC(Oc2cc(-c3ccccc3)nc3cc(OC)ccc23)CN1C(=O)[C@@H](NC(=O)OC(C)(C)C)C(C)C)C(=O)NS(=O)(=O)C(C)C | Ki | 0.58 µM

For reference, 2 entries again:

| compound | endpoint | result |
|---|---|---|
| CCCC[C@H](NC(=O)[C@H](CCC(=O)O)NC(=O)[C@@H](N)CC(=O)O)C(=O)N[C@@H](CCC(=O)O)C(=O)N[C@@H](CC1CCCCC1)C(=O)N[C@@H](CS)C(=O)O | IC50 | 0.22 µM |
| CC[C@H](NC(=O)[C@H](CC(C)C)NC(=O)[C@@H](NC(=O)[C@@H](NC(=O)[C@H](CC(=O)O)CC(=O)[C@H](CCC(=O)O)NC(C)=O)C(C)C)C(C)C)C(=O)C(=O)NCc1ccccc1OC | Ki | <1 µM |